Assay [1] addresses purified rabies virus G protein (rabies virus).
The target in assay [2] is G protein of rabies virus rv61 (Human (ex, dog), UK (ex, India)), on virus (rabies virus). The assay is described as follows: cell-based or functional assay.
Assay [3] deals with G protein of rabies virus I-151 (Dog, India), on virus (rabies virus). Put plainly: cell-based or functional assay.
Assay [4] has as its target G protein of rabies virus I-148 (Dog, India), on virus (rabies virus). The assay is described as follows: cell-based or functional assay.

Where “and” joins values, the source holds several entries; their conditions need not be identical. Equal entries are not always repeated.

B1: antibody 1 (antibody, V domains shown)
VH: VQLLQESGPGLAKPSETLSLICTVSGGSISRRRDYWGWIRQPPGRGLEWIGSFFHRGSTYYNPSLESRVSISVDPSKNQFSLHLSSVTVADTAVYYCARHPSTPFAEYLLLPDAFDSWGQGTLVTVSS
VL: DIVMTQSPATLSVSPGERATLSCRASQSVRSSLAWYQQRPGQAPRLLISGASTRATDIPARLSGSGSGTEFTLTVSSLQSEDFAVYYCQQYSDWPLTFGGGTKVEIKR
For B1, in assay [1], the Kd is 3.73 nM and 4.54 nM and 5.36 nM; the koff was 0.000939 s⁻¹ and 0.00115 s⁻¹; the kon was 252000 M⁻¹ s⁻¹ and 214000 M⁻¹ s⁻¹. In assay [2], the “neutralizing activity (RFFIT)” value is 1.7 IU/mL and 1740 IU/mg; the “neutralizing activity (RFFIT), Titer” value is 200. In addition, the “neutralizing activity (RFFIT)” value in assay [3] is 0.74 IU/mL and 3680 IU/mg. Besides, the “neutralizing activity (RFFIT)” value in assay [4] was 2600 IU/mg.

The values above are taken from patent US20190022211A1 (CELLTRION, published 2019).
